In article PMC11335895:
For at least one entry, the source does not settle the construct or the ends of the probe.

Molecular target: H-NS (Acinetobacter baumannii AB5075) (UniProt V5VHH2)
Test: EMSA
Details: EMSA: 40 mM Tris-acetate pH 7.9, 10 mM MgCl2, 100 mM KCl, 37 C 10 min, 5% polyacrylamide gel, recombinant protein, probe letters rebuilt from the primers and the genome

Q: What does the source list for “AGGGTATCTATATCAGCCAAAATAGCCAGATATTTTGGATACTGGTGGGTAGTATTAATTTCTTTGAAAAAATTGGTAATTCATATGAGCTATTAAAGTTAAGAACTACAATTTTTGAGAAAATAAAATTTAGGTTGAATAAACTTCTCTTGGTCTGAGCCATTACAAGAACCAAAAATAATTACTTGTAATTTTTATCTAAAGCCATGTTTAAGCAAAAAATATAGAAAAGTTATGGTTATGTAGGGAAAGCATGTTTTTTAGTGCTAAGGAAGCATTAAATTAATTTTAAAAAAATATGATAGGTAGACAGATTAGTCTTGACAATTTTATGGACTTTATGTAGAGCCTGTCTTTTTGTAAAGTGGGCTGAATCGATACTAATCAAATAGGATTAACTTAGATGCTATTTATGATTAAATATTCTTAAGAAAATGTTTCATAATGCCTAATCTCATGATATTTAAATCAATTTTTAATTTAGTTTAATTTTTAAATAAACCAATAAAAATCAATCATTTATTTTTATTTACAAAAATTAACAATATTATTTTTTTATAAGAAAAACTTTATTAAGCTATATTTTATAGGCATCTTAACTATTGGCTTTTAGTTTAAGTTAATATGTTTTTTATATAAAATATGTTTATTTATATGTTAAACTGCGACTAAATTTTTTGAATATAAGGTTTTTATACTGATTTTTTAATATTCTAAAAATATTAACTTTTCGGTAAAGCCTTGAATAAATAAGAAAACAGAGGAATGAAAGTTGTGTTG (double strand) [T6SS regulatory DNA (prey)]”?
A: binding result (6 uM H-NS with 1-10 uM H-NS-39, no impact on DNA binding): binds; binding result (6 uM H-NS, herring sperm DNA competitor): binds
